Source: US20100055761A1 (GENERAL HOSPITAL, published 2010)
Several values for one entry are separate records, joined by “and”; a condition that tells them apart may be missing. Equal entries are not always repeated.

T1: CD5 (human, UniProt P06127 25-495)
T1 sequence: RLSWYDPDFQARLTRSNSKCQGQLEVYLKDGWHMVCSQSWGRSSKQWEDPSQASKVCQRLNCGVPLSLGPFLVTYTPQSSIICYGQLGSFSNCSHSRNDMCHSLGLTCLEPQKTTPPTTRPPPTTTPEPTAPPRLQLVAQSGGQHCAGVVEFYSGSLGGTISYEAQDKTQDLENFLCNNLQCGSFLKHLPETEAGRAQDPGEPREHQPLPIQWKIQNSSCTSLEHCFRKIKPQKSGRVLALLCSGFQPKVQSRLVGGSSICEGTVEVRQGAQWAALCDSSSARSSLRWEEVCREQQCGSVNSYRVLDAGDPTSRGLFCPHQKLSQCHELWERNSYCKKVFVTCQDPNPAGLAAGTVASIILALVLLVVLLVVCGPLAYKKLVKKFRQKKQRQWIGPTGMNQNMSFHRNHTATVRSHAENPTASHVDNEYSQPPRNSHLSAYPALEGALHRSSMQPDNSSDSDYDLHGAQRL

B1: SortaseA conjugated anti-CD5-aerolysinGrB (scFv)
chain: ANIQLVQSGPELKKPGETVKISCKASGYTFTNYGMNWVKQAPGKGLRWMGWINTHTGEPTYADDFKGRFAFSLETSASTAYLQINNLKNEDTATYFCTRRGYDWYFDVWGAGTTVTVFSGGGGSGGGGSGGGSSDIKMTQSPSSMYASLGERVTITCKASQDINSYLSWFHHKPGKSPKTLIYRANRLVDGVPSRFSGSGSGQDYSLTISSLDYEDMGIYYCQQYDESPWTFGGGTKLEMRLERPHGGGSLPETGKGGSNSAASGEIPTLSALDIPDGDEVDVQWRLVHDSANFIKPTSYLAHYLGYAWVGGNHSQYVGEDMDVTRDGDGWVIRGNNDGGCDGYRCGDKTSIKVSNFAYNLDPDSFKHGDVTQSDRQLVKTVVGWAINDSDTPQSGYDVTLRYDTATNWSKTNTYGLSEKVTTKNKFKWPLVGETELSIEIAANQSWASQNGGSTTTSLSQSVRPTVPAHSKIPVKIELYKADISYPYEFKADVSYDLTLSGFLRWGGNAWYTHPDNRPNWNHTFVIGPYKDKASSIRYQWDKRYIPGEVKWWDWNWTIQQNGLPTMQNNLARVLRPVRAGITGDFSAESQFAGNIEIGAPVPVAAESKGIEPDSGVEGAGQGLRLEIPLDAQELSGLGFNNVSLSVTPAANQVEHHHHHH

What was measured:
[1] = biological target: CD5, human, P06127 25-495; experiment: cell-based or functional assay
[2] = biological target: T1, CD5; experiment: cell-based or functional assay

| Molecule | EC50, cytotoxicity to CD5^+Raji cells in the presence of GrB-anti-CD19 [1] [nM] | EC50, cytotoxicity (MTS assay) to CD5^+Raji cells with 2 nM GrB-anti-CD19 [2] | EC50, cytotoxicity (MTS assay) to CD19^+Jurkat cells with 2 nM GrB-anti-CD19 [2] [nM] | estimated EC50, cytotoxicity to CD5^+JVM3 cells with 2 nM GrB-anti-CD19 [2] [nM] | estimated EC50, cytotoxicity to Jeko-1 cells with 2 nM GrB-anti-CD19 [2] [nM] |
| --- | --- | --- | --- | --- | --- |
| anti-CD5-VCE fusion protein bearing a granzyme B cleavage site | 1.3 | – | – | – | – |
| B1 | – | ~0.3 nM and ~0.4 nM | ~6.5 | 2.1 | 22.4 |
